Results reported in the supplement of paper PMC9931576.
Residue numbers refer to the chain shown, from its start. Human monoclonal antibodies against the spike receptor-binding domain (heavy:light variable regions). IC50 against pseudoviruses bearing the spike of naturally observed variants; lower = stronger; >10 µg/ml means not reached at the top dose. No active / inactive call. The stated detection limit is 0.0005 µg/ml; values near or below 0.001 µg/ml lie at the floor of the assay.

B1: BD56-730 (protein)
chain 1: QVQLVESGGGVVQPGRSLRLSCAASAFTFSTYAMYWVRQAPGKGLEWVALISYDGINKDYADSVKGRFTISRDNSKNTLYLQMNGLRTEDTAVYYCARDLARAQLVGDDYYYYYGMDVWGQGTTVTVSS
chain 2: SYELTQPPSVSVSPGQTARITCSGDALPKQHAYWYQQKPGQAPVLVIYKDNERPSGIPERFSGSSSGTTVTLTITGVQAEDEADYYCQSAGISGTYVVFGGGTKLTVL
B2: BD56-913 (protein)
chain 1: EVQLVESGGDLVKPGGSLRLSCAASGFSFSDAWMTWVRQSPGKGLEWVGRIKTQIDGGTKDYAAPVKGRFTISRDDSKNTLHLDMNSLKTEDTALYYCTTDFNPLDDYGGYWGQGTLVTVSS
chain 2: SYVLTQPPSVSVAPGKTARITCGGDNIGNKRVQWYQQKPGQAPVLVIYYDRDRPSGIPERFSGSNSGNTATLTISRVEAGDEADFYCQVWDTNSDHFWVFGGGTKLTVL
B3: BD56-904 (protein)
chain 1: QVQLVQSGAEVKKPGSSVKVSCKASGGTFSSYAISWVRQAPGQGLEWMGRIIPILGIANFAQKFQGRVTITADKSTNTAYMELSSLRSEDTAVYYCARDEGYSGSGSNNWFDPWGQGTLVTVSS
chain 2: QSVLTQPPSVSGAPGQRVTISCTGSNSNIGAGYDVHWYQQLRGTAPKVLIYGNSNRPSGVPDRFSGSKSGTSASLAITGLQAEDEADYYCQSYDSGLSGSVFGGGTKLTVL
B4: BD56-911 (protein)
chain 1: HVQLVQSGAEVKKPGSSVKVSCLASGDSLSSYTISWVRQAPGQGLEWMGGIIPILGIPNYAQKFQGRVTITADKSTSTAYMELSSLRSEDTAVYFCAREWGVLGYCSSTSCYSLWGQGTMVTVSS
chain 2: B3 chain 2 with N26S, R42P, V48L, G52D, S54T, G96S, G99A, S100V
B5: BD56-919 (protein)
chain 1: QVQLVESGGGVVQPGRSLRLSCAVSGFTFRTYVMHWVRQAPGKGLEWVATILYDGSDTYHSDSVKGRFTISRDNSKNTLYLQMNSLRTEDTAVYYCAKQGGPYCSGGSCYGGVFDYWGQGTPVTVSS
chain 2: DIQMTQSPSSLSASVRDRVTITCQASQDINNHLNWYQQKPGKAPKLLVYDASNLETGVPSRFSGSGSGTDFTFTISSLQPEDFATYYCQQYDNLPLTFGGGTKVEIK
B6: TAU-2220 (protein)
chain 1: QVQLVQSGAEVKKPGASVKVSCKASGYTFTNYFIHWVRQAPGQGLEWMGMINPSVGSTTYAQNFQGRVTMTRDTSTSTVYMELSSLRSEDTAIYYCARTHVAQLWEIWYFDIWGRGTLVTVSS
chain 2: QSVLTQPPSASGTPGQRVTISCSGSTSNIGSNAVNWYQQLPGTAPKLLIYSDNHRPSGVPDRFSGSRSGTSASLAISRLQSEDEADYYCAAWDDSLKGVFGGGTKLTVL
B7: TAU-2310 (protein)
chain 1: EVQLLESGGGLVQPGGSLRLSCAASGFTFSNYVMSWVRQAPGKGLEWVSGIGGSGDSTYYADSVKGRFTISRDNSKNTLYLQINSLRAEDTAVYYCAKGAAPYYYYYYGMDVWGQGTTVTVSS
chain 2: QSALTQPASVSGSPGQSITISCTGTSSDVGGYDYVSWYQQHPGKAPKLMIYEVSDRPSGVSNRFSGSKSGSTASLTISGLQAEDEADYYCSSYTSSSALYVFGTGTKVTVL
B8: BD56-901 (protein)
chain 1: QVQLVESGGGVVQPGRSLRLSCVASGFSFSTYGMHWVRQAPGKGLEWVAVIWYDGNNKYYADSVKGRFTISRDNSKNTLYLQMNSLRAEDTAVYYCAKELPYSRVAGNDDYYYYYGMDVWGQGTTVTVSS
chain 2: SHELTQPPSVSVSPGQTASITCSGDKLGDKYASWYQQKPGQSPVLVIFQDSKRPSGIPERFSGSNSGNTATLTISGTQAMDEADYYCQAWGSGTARNWVFGGGTKLTVL
B9: BD56-907 (protein)
chain 1: EVQLVESGGGLVQTGRSLRLSCAASGFTFDDYAMHWVRQAPGKGLDWVSGITSNSGTIGYADSVKGRFTISRDNAKNSLYLQINSLRAEDTALYYCAKDGRQWLVEGEGFFDYWGQGTRVTVSS
chain 2: QSALTQPASVSGSPGQSITISCTGTSSDVGGFNYVSWYRQDPGKAPKFMIYDVSKRPSGVSNRFSGSKSGNTASLTISGLQAEDESDYYCSSYTSSSTYVFGTGTKVTVL
B10: BD56-719 (protein)
chain 1: EVQLVQSGAEVKKPGESLKISCKGSGYIFTTYWIGWVRQMPGKGLEWMGIIYPGDSDIRYSPSFQGQVTISADKSFNTAYLQWSSLQASDTAMYYCARLVSFDWLADFWGQGTLVTVSS
chain 2: DIVMTQSPLSLSVSPGQPASISCKSSQSLLHSDGTTSLYWYLQKPGQPPQLLIYEVSNRFSGVPARFSGSGSGTDFTLKISRVEAEDVGVYYCMQNILLFTWTFGQGTKVEIK
B11: BD56-722 (protein)
chain 1: QVQLVESGGGVVQPGRSLRLSCAASGFTFSNCPIHWVRQAPGKGLEWVAVISYDGINQYYAESVKGRFTVSRDNSKNTVFLQMNSLRPEDTAVYYCARDRQIGWFGDGDGFEIWGQGTVVTVSS
chain 2: DIVLTQSPATLSLSPGERATLSCRASQSVSSHLAWYQQKPGQAPRLLIYGASYRATGIPARFSGSGSGTDFTLTISSLEPEDFAVYYCHQRSNWPPYTFGQGTKLEIK
B12: BD56-915 (protein)
chain 1: EVQLVESGGGLVQPGRSLTVSCAASGFTFEDYAIHWVRQTPGKGLEWVSGMSCNSATIGYADSVKGRFIISRDNAKNSLYLHMRSLRAEDTALYYCVKDRESSGESSGFDYWGQGTLVTVSP
chain 2: SYVLTQPPSVSVAPGKTAIISCGVNNIGTKGVHWYQQKPGQAPVLVIYYDSDRPSGIPERFSGSKSGSTATLTITRVEAGDEADYYCQVWDSSSDLWVFGGGTKLTVL

These binders were tested against SARS-CoV-2 Omicron BA.1 spike pseudovirus (assay: pseudovirus neutralization IC50; higher = weaker neutralization).
Experimental: (§1)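 Single-round VSV luciferase pseudovirus mixed with antibody dilutions for 1 h and put on Huh-7 cells for about a day; IC50 from the dose curve.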

Binder | pseudovirus neutralization IC50 [µg/mL]
B1 | 0.79
B2 | 0.86
B3 | 2.99
B4 | 0.443
B5 | > 10
B6 | > 10
B7 | > 10
B8 | 0.536
B9 | > 10
B10 | 0.00438
B11 | 1.83
B12 | 0.102

Each binder was assayed against SARS-CoV-2 Omicron BA.2 spike pseudovirus in the same assay as above.
Experimental: as §1

Binder | pseudovirus neutralization IC50 [µg/mL]
B1 | 0.99
B2 | 1.37
B3 | 1.83
B4 | 0.381
B5 | > 10
B6 | > 10
B7 | > 10
B8 | 2.75
B9 | > 10
B10 | 0.00805
B11 | 1.52
B12 | 0.22

These binders were tested against SARS-CoV-2 Omicron BA.2.75 spike pseudovirus in the same assay as above.
Experimental: as §1

Binder | pseudovirus neutralization IC50 [µg/mL]
B1 | 1.89
B2 | > 10
B3 | 1.51
B4 | 0.69
B5 | > 10
B6 | > 10
B7 | > 10
B8 | 1.45
B9 | > 10
B10 | 0.00792
B11 | 2.59
B12 | 0.27

What follows are binders tested against SARS-CoV-2 Omicron BA.5 spike pseudovirus in the same assay as above.
Experimental: as §1

Binder | pseudovirus neutralization IC50 [µg/mL]
B1 | 0.914
B2 | > 10
B3 | > 10
B4 | > 10
B5 | > 10
B6 | > 10
B7 | > 10
B8 | 2.94
B9 | > 10
B10 | 0.00711
B11 | 2.01
B12 | > 10

What follows are binders tested against SARS-CoV-2 Omicron BQ.1.1 spike pseudovirus in the same assay as above.
Experimental: as §1

Binder | pseudovirus neutralization IC50 [µg/mL]
B1 | 5.33
B2 | > 10
B3 | > 10
B4 | > 10
B5 | > 10
B6 | > 10
B7 | > 10
B8 | 1.67
B9 | > 10
B10 | > 10
B11 | 3.44
B12 | > 10

The binders below were run against SARS-CoV-2 Omicron XBB spike pseudovirus in the same assay as above.
Experimental: as §1

Binder | pseudovirus neutralization IC50 [µg/mL]
B1 | 3.94
B2 | > 10
B3 | 2.58
B4 | > 10
B5 | > 10
B6 | > 10
B7 | > 10
B8 | 1.5
B9 | > 10
B10 | 4.01
B11 | 4.96
B12 | 3.84

Each binder was assayed against SARS-CoV-2 early D614G spike pseudovirus in the same assay as above.
Experimental: as §1

Binder | pseudovirus neutralization IC50 [µg/mL]
B1 | 5.91
B2 | > 10
B3 | 2.3
B4 | 0.328
B5 | > 10
B6 | > 10
B7 | 5.57
B8 | > 10
B9 | 0.594
B10 | 0.00434
B11 | 2.3
B12 | 0.011
